Measured values from several laboratories, pooled; numbers as filed in NIAID ChemDB.

Shared fields: whole-cell or culture tests; species: Candida albicans; endpoint: MIC

Two numbers with a dash give a range or band. Lines come from different laboratories, so protocols vary. Blank or dashed fields: not listed here.

{"structure": "CC[C@@]1(OC(=O)CN)C(=O)OCc2c1cc1n(c2=O)Cc2cc3cc4c(cc3nc2-1)OCO4", "strain or isolate": "A39", "result": ">1.56 µg/mL"}
{"structure": "CC1=CC[C@H]2C(C)(C)CCC[C@]2(C)[C@H]1C/C(OS(=O)(=O)[O-])=C(\\C)CCC/C(C)=C/Cc1cc(O)ccc1O.[Na+]", "strain or isolate": "ATCC 10231", "result": ">100 µg/mL"}
{"structure": "CN[C@@H]1[C@H](O)[C@@H](O)[C@H](O[C@H]2c3cc(C)c(C(=O)N[C@H](C)C(=O)OC)c(O)c3-c3c(cc4c(c3O)C(=O)c3cc(OC)cc(O)c3C4=O)[C@@H]2O)O[C@@H]1C", "strain or isolate": "A9540", "result": ">100 µg/mL"}
{"structure": "C/C=C/C(C)=C/C(C)C(=O)CC1CC(CC(N)=O)CC(=O)O1", "strain or isolate": "IFO 1060", "result": ">100 µg/mL"}
{"structure": "COc1cc(O)c2c(c1)C(=O)c1c(cc3c(c1O)-c1c(cc(C)c(C(=O)NC(CO)C(=O)O)c1O)[C@H](OC1OC(C)C(N(C)C)C(OC4OCC(O)C(O)C4O)C1O)[C@H]3O)C2=O", "strain or isolate": "A9540", "result": "6.3 µg/mL"}
{"structure": "COc1cc(O)c2c(=O)c(OC)c(-c3ccc(OC4O[C@H](CO)[C@@H](O)[C@H](O)[C@H]4O)cc3)oc2c1", "strain or isolate": "ATCC 10231", "result": "80 µg/mL"}
{"structure": "CCCCCCCCCCCCCCCCCC[n+]1ccccc1.[Cl-]", "strain or isolate": "CCH442", "result": "4.2 µM"}
{"structure": "N#[N+]c1nc(-c2cccc(Cl)c2)[nH]c1C(=O)N1CCCC1", "strain or isolate": "ATCC 10231", "result": "200 µg/mL"}
{"structure": "C[C@H](CCC(=O)NCCNCCNC(=O)CC[C@@H](C)[C@H]1CCC2C3CCC4C[C@H](O)CC[C@]4(C)C3C[C@H](C)[C@@]21O)[C@H]1CCC2C3CCC4C[C@H](O)CC[C@]4(C)C3C[C@H](C)[C@@]21O", "strain or isolate": "Isolate 2", "result": "0.012 µM"}
{"structure": "CCCCCCCCCCCC(=O)OCC(COC(=O)CCCCCCCCCCC)OC(=O)CCCCCCCCCCC", "result": ">1000 µg/mL"}
{"structure": "Cc1nc([N+]#N)c(C(=O)N2CCCC2)[nH]1", "strain or isolate": "ATCC 10231", "result": "200 µg/mL"}
{"structure": "CCC(C)n1ncn(-c2ccc(N3CCN(c4ccc(OC[C@H]5CO[C@](Cn6cncn6)(c6ccc(Cl)cc6Cl)O5)cc4)CC3)cc2)c1=O", "strain or isolate": "A28970", "result": "1 µg/mL"}
{"structure": "C=C1CO[C@H]2[C@@H](C)OC(OC[C@@]34C[C@H]5[C@H](C)CC[C@@H]5[C@@]5(C=O)C[C@@H]3C=C(C(C)C)[C@@]45C(=O)O)C[C@@H]12", "strain or isolate": "4711E", "result": "0.001 µg/mL"}
{"structure": "CC(C)=CCC/C(C)=C/CCC(C)=CCCC[n+]1ccc(N(C)C)cc1.O=C([O-])C(F)(F)F", "strain or isolate": "CCH442", "result": "3.3 µM"}
{"structure": "CCCCCCCCCCCCN", "result": "112 µg/mL"}
{"structure": "CC(C)(C)C1CCC(CN2C3=NC[C@@H](C4CCCCC4)N3C[C@H]2CC2CCCCC2)CC1", "strain or isolate": "ATCC 10231", "result": "8–16 µg/mL"}
{"structure": "COC(=O)C1=CC[C@@]23CC[C@@H]([C@@](C)(/C=C/C=C(\\C)C(=O)O)OC2=O)[C@@]3(O)CC1", "strain or isolate": "Isolate B311", "result": "3.12 µg/mL"}
{"structure": "CC(=O)O[C@H]1C[C@@]23COC(=O)/C=C(/C)CC4OC(/C=C/C=C\\C(=O)O[C@@H]5C[C@@H](O[C@@H]2C=C1C)[C@@]1(CO1)[C@]53C)[C@@H](C)O4", "result": "125 µg/mL"}
{"structure": "CCCCCCCCCC[n+]1ccccc1.[Cl-]", "strain or isolate": "CCH442", "result": "200 µM"}
{"structure": "CCCCCCCCCCCCCC(=O)O", "result": "547 µg/mL"}
{"structure": "CCN1C2=NC[C@H](Cc3ccccc3)N2C[C@@H]1CC1CCCCC1", "strain or isolate": "ATCC 10231", "result": ">64 µg/mL"}
{"structure": "CCCCCCCCCC(=O)OCC(O)COC(=O)CCCCCCCCC", "result": ">1000 µg/mL"}
{"structure": "Cc1ccc(-c2nc3c(=O)n(-c4ccccc4)c(=O)nc-3n(C)n2)cc1", "strain or isolate": "IFO 0583", "result": "50 µg/mL"}
{"structure": "CC[C@@]1(O)C(=O)OCc2c1cc1n(c2=O)Cc2c-1nc1cc3c(cc1c2C)OCO3", "strain or isolate": "A39", "result": ">100 µg/mL"}
{"structure": "Clc1ccc(COC(Cn2ccnc2)c2ccc(Cl)cc2Cl)c(Cl)c1", "result": ">10 µg/mL"}
{"structure": "Cn1nc(-c2ccc(Cl)cc2)nc2c(=O)n(-c3ccccc3)c(=O)nc1-2", "strain or isolate": "IFO 0583", "result": "20 µg/mL"}
{"structure": "C=C1CC[C@H]2C(C)(C)CCC[C@]2(C)[C@H]1C/C(OS(=O)(=O)[O-])=C(\\C)CCC/C(C)=C/Cc1cc(O)ccc1O.[Na+]", "strain or isolate": "ATCC 10231", "result": ">100 µg/mL"}
{"structure": "C[C@H]1O[C@@H](Oc2ccc(-c3coc4cc(O[C@@H]5O[C@H](C)[C@H](O)[C@H](O)[C@@H]5O)ccc4c3=O)cc2)[C@@H](O)[C@@H](O)[C@H]1O", "strain or isolate": "B02630", "result": "7 µg/mL"}
{"structure": "Cn1nc(-c2cccc(Cl)c2)[n+]([O-])c2c(=O)n(-c3ccccc3)c(=O)nc1-2", "strain or isolate": "IFO 0583", "result": "50 µg/mL"}
{"structure": "O=c1[nH]sc2ccc(F)cc12", "strain or isolate": "ATCC 2091", "result": "30 µg/mL"}
{"structure": "Cn1nc(-c2ccc(Br)cc2)nc2c(=O)n(-c3ccccc3)c(=O)nc1-2", "strain or isolate": "IFO 0583", "result": "50 µg/mL"}
{"structure": "C[C@@H]1[C@H](O)[C@@H](C)/C=C/C=C/CC/C=C/C=C/C=C/C=C/C(O[C@H]2O[C@H](C)[C@@H](O)[C@H](N)[C@@H]2O)CC2O[C@](O)(CC(O)C(O)CCC(O)CC(O)CC(O)CC(=O)O[C@H]1C)CC(O)C2C(=O)O", "strain or isolate": "ATCC 10231", "result": "8 µg/mL"}
{"structure": "CC(C)=CCC/C(C)=C/CCC(C)=CCCC[n+]1ccccc1", "strain or isolate": "CCH442", "result": "160 µM"}
{"structure": "COc1ccc(C(C)=O)cc1C(=O)CC(C)C", "strain or isolate": "ATCC 10231", "result": ">400 µg/mL"}
{"structure": "N#[N+]c1nc(-c2ccc(Cl)cc2Cl)[nH]c1C(=O)N1CCCC1", "strain or isolate": "ATCC 10231", "result": "100 µg/mL"}
{"structure": "C1CCC(C[C@@H]2CN3C(=NC[C@H]3C3CCCCC3)N2CCC23CC4CC(CC(C4)C2)C3)CC1", "strain or isolate": "ATCC 10231", "result": "32–64 µg/mL"}
{"structure": "CCCCCCCCCCCCCCCCCCCC[n+]1ccccc1.[Br-]", "strain or isolate": "CCH442", "result": "3.4 µM"}
{"structure": "C1CCC(C[C@@H]2CN=C3N2C[C@H](C2CCCCC2)N3CCC23CC4CC(CC(C4)C2)C3)CC1", "strain or isolate": "ATCC 10231", "result": "10–16 µg/mL"}
{"structure": "Cc1ccc[n+](CCCCC(C)CCCC(C)CCCC(C)C)c1.O=C([O-])C(F)(F)F", "strain or isolate": "CCH442", "result": "7 µM"}
{"structure": "CCN1C2=NCC(C)(C)N2C[C@@H]1Cc1ccccc1", "strain or isolate": "ATCC 10231", "result": ">250 µg/mL"}
{"structure": "CC(C)C(C)/C=C/[C@@H](C)[C@H]1CCC2C3C[C@@H](O)[C@@]4(O)C[C@@H](O)CC[C@]4(C)C3CC[C@@]21C", "result": "250 µg/mL"}
{"structure": "C[C@@H]1O[C@@H](OC[C@H]2O[C@@H](Oc3c(-c4ccc(O)cc4)oc4cc(O)cc(O)c4c3=O)[C@H](O)[C@@H](O)[C@@H]2O)[C@H](O)[C@H](O)[C@H]1O", "strain or isolate": "ATCC 10231", "result": "320 µg/mL"}
{"structure": "CC(C)(C)C1CCC(CN2C3=NC[C@H](Cc4ccccc4)N3C[C@@H]2Cc2ccccc2)CC1", "strain or isolate": "ATCC 10231", "result": ">64 µg/mL"}
{"structure": "CCC(C)CC(C)CCCCCCCCC(=O)N[C@H]1C[C@@H](O)[C@@H](O)NC(=O)[C@@H]2[C@@H](O)CCN2C(=O)[C@H]([C@H](O)CC(N)=O)NC(=O)[C@H]([C@H](O)[C@@H](O)c2ccc(O)cc2)NC(=O)[C@@H]2C[C@@H](O)CN2C(=O)[C@H]([C@@H](C)O)NC1=O", "result": "<0.02 µg/mL"}
{"structure": "Cc1ccc(-c2nn(C)c3nc(=O)n(-c4ccccc4)c(=O)c-3[n+]2[O-])cc1", "strain or isolate": "IFO 0583", "result": "100 µg/mL"}
{"structure": "CC(C)(C)C1CCC(CN2C3=NC[C@H](CC4CCCCC4)N3C[C@@H]2CC2CCCCC2)CC1", "strain or isolate": "ATCC 10231", "result": "5–8 µg/mL"}
{"structure": "CC1=C[C@H]2O[C@@H]3CC4OC(=O)/C=C\\C=C\\C(C(C)O)OCC[C@H](C)[C@H](C)C(=O)OC[C@@]2(CC1)[C@]4(C)[C@]31CO1", "result": "125 µg/mL"}
{"structure": "NC(=O)c1cccc(F)c1SSc1c(F)cccc1C(N)=O", "strain or isolate": "ATCC 2091", "result": "30 µg/mL"}
{"structure": "CCCCCCCCCCCC=O", "result": "136 µg/mL"}
{"structure": "NC(=O)c1c(F)cccc1SSc1cccc(F)c1C(N)=O", "strain or isolate": "ATCC 2091", "result": "5 µg/mL"}
{"structure": "CCCCCCCCCCCC[n+]1ccccc1", "strain or isolate": "CCH442", "result": "22 µM"}
{"structure": "CCCCn1sc2ccc(C(F)(F)F)cc2c1=O", "strain or isolate": "ATCC 2091", "result": "40 µg/mL"}
{"structure": "CC1=CC[C@H]2C(C)(C)CCC[C@]2(C)[C@H]1C/C(OS(=O)(=O)[O-])=C(\\C)CCC/C(C)=C/Cc1cc(O)ccc1O", "strain or isolate": "ATCC 10231", "result": ">100 µg/mL"}
{"structure": "CC(C)CCCC(C)CCCC(C)CCCC[n+]1ccccc1.Cc1ccc(S(=O)(=O)[O-])cc1", "strain or isolate": "CCH442", "result": "6.4 µM"}
{"structure": "CC/C=C/C(CC)CCC[C@@]1(CC)C[C@H](CC)[C@H](CC(=O)O)OO1", "result": "2.5 µg/mL"}
{"structure": "CN[C@@H]1[C@H](O)[C@@H](O)[C@H](O[C@H]2c3cc(C)c(C(=O)N[C@H](C)C(=O)O)c(O)c3-c3c(cc4c(c3O)C(=O)c3cc(OC)cc(O)c3C4=O)[C@@H]2O)O[C@@H]1C", "strain or isolate": "A9540", "result": "3.1 µg/mL"}
{"structure": "COc1cc2c(cc1[C@@H](C)O)C=CC(C)(C)O2", "strain or isolate": "ATCC 10231", "result": "100 µg/mL"}
{"structure": "C[C@@H]1CCC2=C(CCCC2(C)C)[C@@]1(C)CC[C@H](CCCc1ccoc1)COS(=O)(=O)[O-]", "strain or isolate": "ATCC 10231", "result": ">100 µg/mL"}
{"structure": "CCCC/C=C\\CCCCCCCC(=O)O", "result": "220 µg/mL"}
{"structure": "N#[N+]c1nc(-c2ccc(Cl)cc2)[nH]c1C(=O)N1CCCC1", "strain or isolate": "ATCC 10231", "result": "25 µg/mL"}
{"structure": "CC(C)(C)C1CCC(CN2C3=NC[C@H](C4CCCCC4)N3C[C@@H]2C2CCCCC2)CC1", "strain or isolate": "ATCC 10231", "result": "32–64 µg/mL"}

For reference, 7 entries again:

structure,strain or isolate,result
C=C1CC[C@H]2C(C)(C)CCC[C@]2(C)[C@H]1C/C(OS(=O)(=O)[O-])=C(\C)CCC/C(C)=C/Cc1cc(O)ccc1O.[Na+],ATCC 10231,>100 µg/mL
CC1=C[C@H]2O[C@@H]3CC4OC(=O)/C=C\C=C\C(C(C)O)OCC[C@H](C)[C@H](C)C(=O)OC[C@@]2(CC1)[C@]4(C)[C@]31CO1,,125 µg/mL
CC(C)(C)C1CCC(CN2C3=NC[C@H](C4CCCCC4)N3C[C@@H]2C2CCCCC2)CC1,ATCC 10231,32–64 µg/mL
NC(=O)c1c(F)cccc1SSc1cccc(F)c1C(N)=O,ATCC 2091,5 µg/mL
CCN1C2=NCC(C)(C)N2C[C@@H]1Cc1ccccc1,ATCC 10231,>250 µg/mL
Cc1ccc[n+](CCCCC(C)CCCC(C)CCCC(C)C)c1.O=C([O-])C(F)(F)F,CCH442,7 µM
COC(=O)C1=CC[C@@]23CC[C@@H]([C@@](C)(/C=C/C=C(\C)C(=O)O)OC2=O)[C@@]3(O)CC1,Isolate B311,3.12 µg/mL